Biological target: collagenase A (ColA) (Clostridium perfringens, UniProt P43153)
Assay type: biochemical, C. perfringens

The chains behind the UniProt entries cited, without tags or fusion partners. Residues count along the entry.
UniProt P43153, 87-1104 limits assumed: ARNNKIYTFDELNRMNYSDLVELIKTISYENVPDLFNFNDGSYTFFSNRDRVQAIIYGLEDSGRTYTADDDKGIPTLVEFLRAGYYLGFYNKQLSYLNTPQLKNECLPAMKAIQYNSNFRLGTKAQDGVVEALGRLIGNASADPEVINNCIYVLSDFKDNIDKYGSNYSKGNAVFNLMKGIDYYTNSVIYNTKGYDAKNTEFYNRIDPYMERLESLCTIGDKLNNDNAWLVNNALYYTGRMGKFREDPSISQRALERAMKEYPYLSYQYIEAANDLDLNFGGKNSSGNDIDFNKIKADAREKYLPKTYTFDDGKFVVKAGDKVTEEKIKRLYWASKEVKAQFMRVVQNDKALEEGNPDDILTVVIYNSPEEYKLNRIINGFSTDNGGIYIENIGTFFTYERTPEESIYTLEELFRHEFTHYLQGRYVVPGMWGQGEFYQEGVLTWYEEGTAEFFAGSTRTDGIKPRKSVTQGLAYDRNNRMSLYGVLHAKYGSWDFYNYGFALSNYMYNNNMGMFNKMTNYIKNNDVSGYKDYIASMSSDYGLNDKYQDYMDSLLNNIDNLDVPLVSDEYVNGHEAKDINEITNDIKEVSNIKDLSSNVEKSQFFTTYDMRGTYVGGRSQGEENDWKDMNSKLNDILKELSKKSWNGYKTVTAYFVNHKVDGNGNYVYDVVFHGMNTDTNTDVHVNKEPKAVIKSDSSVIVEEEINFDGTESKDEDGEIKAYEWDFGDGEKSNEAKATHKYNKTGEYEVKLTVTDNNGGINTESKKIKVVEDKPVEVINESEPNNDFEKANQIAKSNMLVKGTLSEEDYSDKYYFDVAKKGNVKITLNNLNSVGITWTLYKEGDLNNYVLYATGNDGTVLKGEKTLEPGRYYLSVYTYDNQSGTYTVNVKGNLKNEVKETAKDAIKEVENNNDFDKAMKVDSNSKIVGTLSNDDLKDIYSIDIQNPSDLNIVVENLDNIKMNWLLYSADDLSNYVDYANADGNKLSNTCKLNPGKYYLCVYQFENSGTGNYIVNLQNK

**Q.** With `COc1cc(/C=C/C(=O)O)ccc1O` [ferulic acid] as the compound, how does the “inhibitory effect on ColA (in words)” value read?
**A.** Its value is “low effects”.

Source: PMC9781087, “Discovery of New Microbial Collagenase Inhibitors” (Life, 2022)
